For this assay, the target named is RBD-VLP (Spycatcher-mi3 VLP-particles conjugated with Spytagged-RBD recombinant protein) (SARS-CoV-2). The assay can be described thus: ELISA. (An ELISA detects its analyte on a solid surface through an enzyme-linked reagent.)

For orientation: IC50 means the point on the concentration scale where inhibition reaches its midpoint. Turning to VHH72-Fc, the IC50 amounted to 2 nM.

These data come from PMC8130932.
